Active and inactive are the calls of the source. The rule behind the calls is not given here.
Tested on: Escherichia coli
Experiment: Induction of sensitization to irradiation in Escherichia coli AB1157 under hypoxic condition assessed as reduction in colony formation at 1 mM measured after irradiation
Format: functional, organism-based

With `O=[N+]([O-])c1cn(CCO)c([N+](=O)[O-])n1` the Activity was “Active”.

Reference: ChEMBL document CHEMBL3227964 (J Med Chem, 1979)
